Data on three substances can be found in patent US7060277B2 (priority 1996, dated 2006).

Assay [1] deals with SEB. The assay can be described thus: Murine SEB-binding IgG titers after vaccination. The following applies: 3 weeks before challenge.
The test system of assay [2] is SEB. The following applies: rabbit serum, third bleed; LC peptides coupled to proteosomes, C peptides to KLH; 100 μg IM at 0 and 3 weeks.

Regarding lcT N K K K V T A Q E L D, the “IgG Titer” value with SEB [1] (Trial 2, vaccine route IN) was determined as 200; with SEB [1] (Trial 3, vaccine route IM), 200.

For the substance lcY N K K K A T V Q E L D, the “IgG Titer” value with SEB [1] (Trial 2, vaccine route IN) is 200. Also, in the assay with SEB [2], the “SEB IgG Titer” value is given as 1,600.

Regarding Y V D V F G A N Y Y Y Q C, the “SEB IgG Titer” value in the assay with SEB [2] is 50.
